A mixed list of measured activities; the numbers were collected in NIAID ChemDB.

Shared fields: whole-cell or culture tests; species: HIV-1; measure: EC50

Blank or dashed fields: not listed here. Two numbers with a dash give a range or band. ECn: concentration that inhibits the pathogen or its effect by n%. Lines come from different laboratories, so protocols vary.

O=c1[nH]cnc2c1ncn2[C@H]1CC[C@@H](CO)O1 ; cells: C8166 ; mutations: RT-L74V ; method: p24 ; value: 16 µM
O=C1N(Cc2cccc(-c3ccn[nH]3)c2)[C@H](CCc2ccccc2)[C@@H](O)[C@@H](Cc2ccccc2)N1Cc1cccc(-c2ccn[nH]2)c1 ; cells: MT-2 ; strain: RF ; method: cytopathic effect / MTT ; value: <0.022 µM
CO[P@](=O)(c1cc(C)cc(/C=C/C#N)c1)c1c(C(N)=O)[nH]c2ccc(Cl)c(F)c12 ; cells: MT-4 ; mutations: K103N/Y181C ; strain: IIIB ; value: 0.0047 µM
CNC(=O)C(NC(=O)[C@H](OCc1ccccc1C)[C@H](O)[C@@H](O)[C@@H](OCc1ccccc1C)C(=O)N[C@H](C(=O)NC)C(C)C)C(C)C ; cells: MT-4 ; method: cytopathic effect / XTT ; value: 0.4 µM
Cc1cn([C@H]2C=C[C@@H](CO)O2)c(=O)[nH]c1=O ; cells: MT-2 ; mutations: RT-T69G ; method: p24 ; value: 0.266 µM
COc1cc(OC)nc(N2C(=O)CSC2c2c(Cl)cccc2Cl)n1 ; cells: PBMC ; strain: VB51 ; method: p24 / ELISA ; value: 0.003 µg/mL
Cc1cn([C@H]2C[C@H](N=[N+]=[N-])[C@@H](CO)O2)c(=O)[nH]c1=O ; cells: HT4 + HeLa ; mutations: RT-M41L D67N K70R T215F K219Q ; strain: G780-1 Clinical isolate ZDV-resistant ; method: syncytia ; value: 1.8 µM
CNC(=O)[C@@H](NC(=O)[C@H](OCc1ccccc1)[C@H](O)[C@@H](O)[C@@H](OCc1ccccc1)C(=O)N[C@H](C(=O)NC)c1ccccc1)c1ccccc1 ; cells: MT-4 ; method: cytopathic effect / XTT ; value: 1 µM
Cc1cn([C@H]2C[C@H](N=[N+]=[N-])[C@@H](CO)O2)c(=O)[nH]c1=O ; cells: MT-4 ; mutations: RT-K103R V179D P225H ; strain: EFV-resistant (RT K103R V179D P225H) ; method: cytopathic effect / MTT ; value: 0.02 µM
Nc1nc(NC2CC2)c2ncn([C@H]3C=C[C@@H](CO)C3)c2n1 ; cells: MT-2 ; mutations: RT-T69G ; method: p24 ; value: 0.13 µM
COc1ccc(S(=O)(=O)N(CC2CCCC2)C[C@@H](O)[C@H](Cc2ccccc2)NC(=O)O[C@H]2CCOC2)cc1 ; cells: CEM + CEM-SS ; strain: IIIB ; method: p24 ; value: 0.007 µM
Cc1cn([C@H]2C[C@H](N=[N+]=[N-])[C@@H](CO)O2)c(=O)[nH]c1=O ; strain: CC9 Clinical isolates ; method: p24 ; value: 0.01 µM
Nc1n[nH]c2ccc(CN3C(=O)N(Cc4ccccc4)[C@H](Cc4ccccc4)[C@H](O)[C@H]3CCc3ccccc3)cc12 ; cells: MT-2 ; strain: RF ; method: cytopathic effect / MTT ; value: <0.071 µM
CC(C)=CCN1Cc2cc(Cl)cc3[nH]c(=S)n(c23)C[C@@H]1C ; cells: HT4 + HT4 LacZ-1 ; mutations: RT-L74V Y181C T215Y ; strain: HIVRTMF (RT L74V Y181C) ; method: plaque count ; value: 2.5 µM
Cc1c(O)cccc1C(=O)N[C@@H](CSc1ccccc1)[C@H](O)CN1C[C@H]2CCCC[C@H]2C[C@H]1C(=O)NC(C)(C)CO ; cells: MT-2 ; strain: IIIB ; method: cytopathic effect / MTT ; value: 0.0856 µM
Cc1c(Sc2ccccc2)n(COCCO)c(=O)[nH]c1=O ; cells: CEM(DAY 4) + CEM ; strain: IIIB ; method: cytopathic effect / MTT ; value: 1.3 µM
Cc1cn([C@H]2C[C@H](N=[N+]=[N-])[C@@H](CO)O2)c(=O)[nH]c1=O ; cells: MT-4 ; strain: IIIB ; method: p24 ; value: 0.0005 µM
Cc1cn([C@H]2C[C@H](N=[N+]=[N-])[C@@H](CO)O2)c(=O)[nH]c1=O ; cells: MT-4 ; strain: AMR50 ; method: cytopathic effect / trypan blue ; value: 0.14 µM
C#C[C@]1(CO)O[C@@H](n2cnc3c(N)nc(F)nc32)C[C@@H]1O ; cells: MT4-GFP ; mutations: C162Y ; strain: Clinical isolate ; method: fluorescence ; value: 0.00063 µM
Fc1cccc(F)c1C1SCc2nc3ccccc3n21 ; mutations: RT-Y181C ; strain: IIIB ; method: cytopathic effect / MTT ; value: 13.8 µM
CN=C1CN=C(c2ccc[nH]2)c2cc(Cl)ccc2N1 ; cells: HT4 + HT4-6C ; strain: LAV-1 ; method: plaque count ; value: 0.5–0.8 µM
CNC(=O)[C@@H](NC(=O)[C@@H](C[C@@H](O)[C@@H](OCc1ccccc1)C(=O)N[C@H](C(=O)NC)C(C)C)OCc1ccccc1)C(C)C ; cells: MT-4 ; method: cytopathic effect / XTT ; value: 0.5 µM
NC(=O)c1cccc(CN2C(=O)N(Cc3cccc(C(N)=O)c3)[C@H](Cc3ccccc3)[C@H](O)[C@H]2CCc2ccccc2)c1 ; cells: MT-2 ; strain: RF ; method: cytopathic effect / MTT ; value: <0.035 µM
COC(=O)[C@H](C)NP(=O)(OC[C@@H]1C=C[C@H](n2cc(C)c(=O)[nH]c2=O)O1)Oc1ccc(Br)cc1 ; cells: PBMC ; mutations: RT-M41L D67N K70R L210W T215Y ; strain: G704-2 Clinical isolate ZDV-resistant ; method: p24 ; value: 0.0032 µM
C[C@H]1/C=C/[C@@]2(C)CC[C@@H](C(C)(C)O)[C@@H]2[C@@H](O)C[C@](C)(O)/C=C/C1 ; cells: U87 (CD4+ CCR5+ CXCR4+) + U87 ; strain: 95BRSP007 R5X4 ; method: cytopathic effect / XTT ; value: ~9 µM
Cc1cn([C@H]2C[C@H](N=[N+]=[N-])[C@@H](CO)O2)c(=O)[nH]c1=O ; cells: MT-4 ; method: MTT ; value: 0.0004 µM
Cc1cn([C@H]2C[C@H](N=[N+]=[N-])[C@@H](COC(=O)NCCSC(=O)OC[C@H]3O[C@@H](n4cc(C)c(=O)[nH]c4=O)C[C@@H]3N=[N+]=[N-])O2)c(=O)[nH]c1=O ; cells: MT-4 ; mutations: RT-K103R V179D P225H ; strain: EFV-resistant (RT K103R V179D P225H) ; method: cytopathic effect / MTT ; value: 1 µM
Cc1cn([C@H]2C[C@H](N=[N+]=[N-])[C@@H](CO)O2)c(=O)[nH]c1=O ; cells: PBMC ; mutations: RT-T69K K70G V75I F77L F116Y Q151M M184V ; strain: 56252-1 NRTI resistant recombinant ; method: RT activity ; value: 0.187 µM
Cc1cn([C@H]2C[C@H](N=[N+]=[N-])[C@@H](COC(=O)NCCSC(=O)OC[C@@H]3CC[C@H](n4cnc5c(=O)[nH]cnc54)O3)O2)c(=O)[nH]c1=O ; cells: MT-4 ; mutations: RT-Y181C ; strain: NNRTI-resistant (RT Y181C) ; method: cytopathic effect / MTT ; value: 0.2 µM
CCCCN1C(=O)[C@@H]([C@H](O)C2CCCCC2)NC(=O)C12CCN(Cc1ccc(Oc3ccc(C(=O)O)cc3)cc1)CC2 ; cells: PBMC ; strain: NL4-3 X4 ; method: p24 ; value: >1 µM
Cc1ccnc2c1NC(=O)c1cccnc1N2C1CC1 ; cells: TZM-bl ; strain: N119 ; method: luciferase ; value: 0.22 µg/mL
COC(=O)[C@H](C)NP(=O)(OC[C@@H]1C=C[C@H](n2cc(C)c(=O)[nH]c2=O)O1)Oc1ccc(Br)cc1 ; cells: PBMC ; mutations: RT-D67N T69N K70R M184V T215F K219Q ; strain: 7295-1 NRTI resistant recombinant ; method: RT activity ; value: 0.0002 µM
O=C1N(Cc2cccc(O)c2)[C@H](Cc2ccccc2)[C@H](O)[C@@H](C(F)Cc2ccccc2)N1Cc1cccc(O)c1 ; cells: MT-2 ; strain: RF ; method: cytopathic effect / MTT ; value: <2.1 µM
Nc1nc(=O)n([C@H]2CO[C@@H](CO)S2)cc1F ; cells: MT-4 ; strain: IIIB ; method: p24 ; value: 3.2 µM
CNC(=O)[C@@H](NC(=O)[C@H](OCc1ccc(-c2cccs2)cc1)[C@H](O)[C@@H](O)[C@@H](OCc1ccc(-c2cccs2)cc1)C(=O)N[C@H](C(=O)NC)C(C)C)C(C)C ; cells: MT-4 ; method: cytopathic effect / XTT ; value: 0.02 µM
CCN(CC)CCNS(=O)(=O)c1ccc(-c2c3nc(c(-c4ccc(S(=O)(=O)NCCN(CC)CC)cc4)c4ccc([nH]4)c(-c4ccc(S(=O)(=O)NCCN(CC)CC)cc4)c4nc(c(-c5ccc(S(=O)(=O)NCCN(CC)CC)cc5)c5ccc2[nH]5)C=C4)C=C3)cc1 ; cells: HUT/CCR5 + HUT ; strain: BaL ; conditions: 7 d ; method: p24 ; value: >5 µM
C[C@H](Cn1cnc2c(N)ncnc21)OCP(=O)(O)O ; method: p24 / ELISA ; value: 1.3 µM
C=C/C=C(\C=C/Cc1c2nc(c(-c3ccc(S(=O)(=O)NCCN(CC)CC)cc3)c3ccc([n-]3)c(C/C=C\C(=C/C=C)S(=O)(=O)NCCN(CC)CC)c3ccc([n-]3)c(-c3ccc(S(=O)(=O)NCCN(CC)CC)cc3)c3nc1C=C3)C=C2)S(=O)(=O)NCCN(CC)CC.[O]=[V+2] ; cells: HUT/CCR5 + HUT ; strain: BaL ; conditions: 3 d ; method: p24 ; value: 0.82 µM
Cc1ccc(-c2ccc3c(c2)C=C(C(=O)Nc2ccc(C[N+](C)(C)C4CCOCC4)cc2)CCC3)cc1 ; cells: PBMC ; strain: BAL R5 ; method: p24 ; value: 0.014 µM

Repeating the first 3 entries:

| structure | cells | mutations | strain | conditions | method | value |
|---|---|---|---|---|---|---|
| O=c1[nH]cnc2c1ncn2[C@H]1CC[C@@H](CO)O1 | C8166 | RT-L74V | - | - | p24 | 16 µM |
| O=C1N(Cc2cccc(-c3ccn[nH]3)c2)[C@H](CCc2ccccc2)[C@@H](O)[C@@H](Cc2ccccc2)N1Cc1cccc(-c2ccn[nH]2)c1 | MT-2 | - | RF | - | cytopathic effect / MTT | <0.022 µM |
| CO[P@](=O)(c1cc(C)cc(/C=C/C#N)c1)c1c(C(N)=O)[nH]c2ccc(Cl)c(F)c12 | MT-4 | K103N/Y181C | IIIB | - | - | 0.0047 µM |